pIC50: −log10 of the molar value.
target: Neuraminidase (Influenza A virus (strain A/Tern/Australia/G70C/1975 H11N9), UniProt P03472); experiment: ASSAY_NAME: Neuraminidase Inhibition Assay DESCRIPTION: A standard fluorimetric assay was used to measure influenza virus neuraminidase activity. The substrate 2 -(4-methylumbelliferyl)-alpha-D-acetylneuraminic acid is cleaved by neuraminidase to yield a fluorescent product that can be quantified. Fluorescence was read using an Aminco-Bowman fluorescence spectrophotometer (excitation, 360 nm; emis; details: pH 6.5

Point of comparison: CCC(CC)Oc1cc(C(=O)O)ccc1NC(C)=O [4-acetamido-3-(pentan-3-yloxy)benzoic acid], pIC50 4.43. Against it:
- CCCC(CCC)Oc1cc(C(=O)O)ccc1NC(C)=O — 0.79 log units lower, 3.64
- CCC(CC)Nc1cc(C(=O)O)ccc1NC(C)=O — within 0.2 log units, 4.60
- CCC(CC)Oc1cc(C(=O)O)cc(N)c1NC(C)=O [3-amino-4-acetamido-5-(pentan-3-yloxy)benzoic acid] — 0.39 log units higher, 4.82

Reference: BindingDB's records for 10632058
